US6626122B2, “Deactivatable biocides in ballast water” (Chevron U.S.A. Inc, priority 2001, dated 2003)

System: bacterial inoculum
Assay: Test for rapidly biodegradable hydrocarbonaceous products (visual growth of microorganisms on the product)
Type: cell-based, alkane degrading organisms
Settings: 10 μl inoculum

With `CCCCCCCCCCCCCCCC` [n-C16] the growth (at 2 days) was “no growth” and the growth (at 6 days) was “growth”.
